Assays:
Experiment in all cases: purified protein
Settings in all cases: 160 μM NADPH, pH 6.5 phosphate, 40°C, GST fusion
[1] = test system: CC(=O)C=O
[2] = test system: O=CC=O
[3] = test system: O=C[C@@H](O)CO
[4] = test system: O=C[C@@H](O)[C@H](O)CO

Err1 from F. graminearum (FG04223.1) (Fusarium graminearum PH-1)
Km [1]: 214.32 ± 7.64 µM | kcat [1]: 6.76 s⁻¹ | kcat/Km [1]: 31600 M⁻¹ s⁻¹ | Km [2]: 535.16 ± 6.42 µM | kcat [2]: 2.9 s⁻¹ | kcat/Km [2]: 5420 M⁻¹ s⁻¹ | Km [3]: 298.72 ± 88.4 µM | kcat [3]: 8.54 s⁻¹ | kcat/Km [3]: 28600 M⁻¹ s⁻¹ | Km [4]: 380.48 ± 18.65 µM | kcat [4]: 2.91 s⁻¹ | kcat/Km [4]: 7640 M⁻¹ s⁻¹

Reference: article PMC3751045
